Compound potency records, mixed from different reports. Data source: NIAID ChemDB in PubChem.

Common to all: growth or infection tests; species: Candida albicans; endpoint: MIC

An empty or dashed field is not shown. Neighbouring rows are from separate reports. a–b is a range or a potency band.

structure	strain or isolate	method	value
CN(C)c1ccc(C(=O)c2cc(/C=C/C(=O)O)n(C)c2)cc1			>125 µg/mL
COC(=O)C1C(O)CC2(O)CC(O)CC(O)CC(O)CC(O)CC(=O)CC(O)CC(=O)OC(C(C)CCC(O)CC(=O)c3ccc(N)cc3)C(C)/C=C/C=C/C=C/C=C/C=C/C=C/C=C/C(O[C@@H]3O[C@H](C)[C@@H](O)[C@H](N)[C@@H]3O)CC1O2	10 isolates		0.25–0.5 µg/mL
Cc1ccc(C(=O)Nc2ccc(-c3nc4ccccc4[nH]3)cc2)cc1	ATCC 10231		25 µg/mL
Cc1ccc(C(=O)CSc2nc3c(sc(=S)n3-c3ccccc3)c(=O)n2C)cc1	ATCC 90018		64 µg/mL
O=C(Nc1ccc(-c2nc3ccccc3[nH]2)cc1)c1ccco1	ATCC 10231		25 µg/mL
CCSc1ccnc(C(N)=S)c1	ATCC 44859		1000 µM
Cn1c(-c2cccc(NC(=O)CSc3ccccc3)c2)nc2ccccc21	ATCC 10231		25 µg/mL
Cn1cc(C(=O)c2ccc(Cl)cc2)cc1/C=C/C(=O)NO			>15 µg/mL
O=C(CSc1nc2c(sc(=S)n2-c2ccccc2)c(=O)n1-c1ccccc1)c1ccc(Cl)cc1	ATCC 90018		128 µg/mL
COc1ccc(C(=O)c2cc(/C=C/C(=O)O)n(C)c2)cc1			>500 µg/mL
ONC1=Nc2ccccc2SC(c2ccccc2)C1	CBS 562		>100 µg/mL
CC(C)(C)Sc1ccnc(C(N)=S)c1	ATCC 44859		62.5 µM
O=C(Nc1ccc(-c2nc3ccccc3[nH]2)cc1)c1ccc(Cl)cc1Cl	ATCC 10231		25 µg/mL
COC(=O)/C=C/C(=O)NCC(N)C(=O)N[C@@H](CCSC)C(=O)O			3.12 µg/mL
O=C(Nc1ccc(-c2nc3ccccc3[nH]2)cc1)c1ccc(Cl)cc1	ATCC 10231		25 µg/mL
COC(=O)/C=C/C(=O)NCC(N)C(=O)N[C@@H](Cc1ccccc1)C(=O)O			3.12 µg/mL
CN(CCCC#CC(C)(C)C)c1cccc2c1CCC(=O)N2	Clinical isolate 23		15.6 µg/mL
COC(=O)/C=C/C(=O)NCC(NC(=O)[C@@H](N)CCSC)C(=O)O			0.78 µg/mL
CCCOC(=O)On1cn[n+](C[C@](O)(c2ccc(F)cc2F)[C@@H](C)N2CCN(c3ccc(-n4cnnn4)cc3)C2=O)c1	TA		0.13 µg/mL
COC(=O)/C=C/C(=O)NCC(N)C(=O)NCC(=O)O			100 µg/mL
Cn1cc(C(=O)c2ccccc2)cc1/C=C/C(=O)NO			>15 µg/mL
CCCCSc1ccnc(C(N)=S)c1	ATCC 44859		>500 µM
CC(=O)ONC1=Nc2cc(Cl)ccc2SC1	CBS 562		25 µg/mL
Cn1cc(C(=O)c2ccc(F)cc2)cc1/C=C/C(=O)NO			>8 µg/mL
O=c1c2sc(=S)n(-c3ccccc3)c2[nH]c(=S)n1-c1ccccc1	ATCC 90018		6 µg/mL
C[C@H]1[C@H](O)[C@@H](C)/C=C/C=C/C=C/C=C/C=C/C=C/C=C/[C@H](O[C@@H]2O[C@H](C)[C@@H](O)[C@H](N)[C@@H]2O)C[C@@H]2O[C@](O)(C[C@@H](O)C[C@@H](O)CC[C@H](O)[C@@H](O)C[C@@H](O)CC(=O)O[C@H]1C)C[C@H](O)[C@H]2C(=O)O	3 strains		0.5 µg/mL
CCCC[C@H](N)C(=O)NC(CNC(=O)/C=C/C(=O)OC)C(=O)O			0.2 µg/mL
Nc1ccc(-c2nc3ccccc3[nH]2)cc1	ATCC 10231		25 µg/mL
CCN(CC)C(=O)COc1cc2c(O)c3c(O)c(C)c4c(c13)C(=O)[C@@](C)(O/C=C/[C@H](OC)[C@@H](C)[C@@H](OC(C)=O)[C@H](C)[C@H](O)[C@H](C)[C@@H](O)[C@@H](C)/C=C/C=C(/C)C(=O)N2)O4	ATCC 10231		>100 µg/mL
COC(=O)/C=C/C(=O)NCC(N)C(=O)N[C@@H](C)C(=O)O			1.56 µg/mL
Cn1cc(C(=O)c2ccc([N+](=O)[O-])cc2)cc1/C=C/C(=O)NO			>15 µg/mL
CC1=CCC[C@H]2[C@](C)(CC3=C(O)C(NCC(=O)O)=CC(=O)C3=O)[C@@H](C)CC[C@]12C			2.5 µg/mL
N[C@H]1CCC[C@H]1C(=O)O	IAM4888		10 µg/mL
COC(=O)NC1=Nc2ccc3ccccc3c2SC1	CBS 562		>100 µg/mL
CC(C)CSc1ccnc(C(N)=S)c1	ATCC 44859		>500 µM
CC(=O)On1cn[n+](C[C@](O)(c2ccc(F)cc2F)[C@@H](C)N2CCN(c3ccc(-n4cnnn4)cc3)C2=O)c1	TA		0.06 µg/mL
CCCCCCCCCCSc1ccnc(C(N)=S)c1	ATCC 44859		>500 µM
CCC(C)n1ncn(-c2ccc(N3CCN(c4ccc(OC[C@H]5CO[C@](Cn6cncn6)(c6ccc(Cl)cc6Cl)O5)cc4)CC3)cc2)c1=O	3 strains		0.03–0.06 µg/mL
CCOC(=O)On1cn[n+](C[C@](O)(c2ccc(F)cc2F)[C@@H](C)N2CCN(c3ccc(-n4cnnn4)cc3)C2=O)c1	TA		0.13 µg/mL
C[C@H]1[C@H](O)C(=O)CC2[C@]3(C)CC[C@@]4(C)C5C[C@](C)(C(=O)O)CC[C@]5(C)CC[C@]4(C)C3CC[C@@]21C			>50 µg/mL
Ic1ccc(-c2csc(N/N=C\c3cccc4ccccc34)n2)cc1	Clinical isolates		1 µg/mL
CCOC(=O)/C=C/c1cc(C(=O)c2ccc(OC)cc2)cn1C			>15 µg/mL
CCn1c(SCC(=O)c2ccc(C)cc2)nc2c(sc(=S)n2-c2ccccc2)c1=O	ATCC 90018		64 µg/mL
CCC(C)n1ncn(-c2ccc(N3CCN(c4ccc(OC[C@H]5CO[C@](Cn6cncn6)(c6ccc(Cl)cc6Cl)O5)cc4)CC3)cc2)c1=O	ATCC 90028		0.0313 µg/mL
CCCCCCSc1ccnc(C(N)=S)c1	ATCC 44859		>500 µM
CC(C)=CCCC(C)CCO		broth dilution	1066–2132 µg/mL
O[C@](Cn1cncn1)(Cn1cnc(/C=C/c2ccc(OCC(F)(F)C(F)F)cc2)n1)c1ccc(F)cc1F	3 isolates fluconazole-susceptible		≤0.25 µg/mL
CCOC(=O)/C=C/c1cc(C(=O)c2ccc([N+](=O)[O-])cc2)cn1C			>8 µg/mL
Cc1c(S(=O)(=O)c2ccccc2)[n+](=O)c2cc(Cl)ccc2n1[O-]	Clinical isolate 3		62.5 µg/mL
CC1CC(NOC(=O)c2ccccc2)=Nc2ccccc2S1	CBS 562		>100 µg/mL
COC(=O)/C=C/C(=O)NCC(NC(=O)[C@@H](N)CC(C)C)C(=O)O			0.78 µg/mL
CCn1c(SCC(=O)c2ccc(Cl)cc2)nc2c(sc(=S)n2-c2ccccc2)c1=O	ATCC 90018		64 µg/mL
Cc1c(Sc2ccccc2)[n+](=O)c2cc(Cl)ccc2n1[O-]	Clinical isolate 5		31.25 µg/mL
O=C(/C=C/c1cc(O)ccc1O)c1ccccc1	SDAU1		100 µg/mL
CCCSc1ccnc(C(N)=S)c1	ATCC 44859		500 µM
CCOc1cc2c(cc1F)n([O-])c(C)c(S(=O)(=O)c1ccccc1)[n+]2=O	Clinical isolate 5		15.6 µg/mL
Cn1cc(C(=O)c2ccc(F)cc2)cc1/C=C/C(=O)O			>15 µg/mL